Measured values from several laboratories, pooled; numbers as filed in NIAID ChemDB.

Common to all: target-level tests; agent: HIV-1; target: Protease; read-out: inhibition

An empty or dashed field is not shown. Percent inhibition refers to the dose given; in toxicity tests it is the harm to the cells. Rows are shuffled and stem from different studies.

compound | tested at | read by | strain | conditions | result
O=C1N(Cc2cccc(Br)c2)[C@H]2[C@H](CS(=O)(=O)[C@H]2CCCCCO)N1Cc1cccc(Br)c1 | 80 µM |  |  |  | 90%
O=C1C[C@@H](c2ccc(O)cc2)Oc2cc(O)cc(O)c21 | 100 µg/mL | FRET |  |  | 13.1%
COC(=O)[C@@H](NC(=O)[C@H](CC(C)C)NC(=O)[C@@H](NC(=O)CCCOc1ccc2ccc(OCCCC(=O)N[C@@H](CCC(=O)O)C(=O)N[C@@H](CC(C)C)C(N)=O)cc2n1)C(C)C)C(C)C | 5.7 µM | fluorescence |  |  | 20%
Cc1cccc(C)c1OCC(=O)N[C@@H](Cc1ccccc1)[C@H](O)C(=O)N1CSC(C)(C)[C@H]1C(=O)NCc1ccc(C(N)=O)cc1 | 0.05 µM | HPLC |  |  | 3.3%
C[C@@H]1O[C@@H](Oc2c(-c3cc(O)c(O)c(O)c3)oc3cc(O)cc(O)c3c2=O)[C@H](O)[C@H](O)[C@H]1O | 50 µg/mL | HPLC |  |  | 31.8%
CC(=O)OC1C(COC(=O)/C=C/c2ccc(O)cc2)OC(COC(=O)/C=C/c2ccc(O)cc2)(OC2OC(COC(=O)/C=C/c3ccc(O)cc3)C(O)C(O)C2O)C1OC(=O)/C=C/c1ccc(O)cc1 | 100 µg/mL | substrate cleavage / fluorescence |  |  | 91.58%
O=C1N(Cc2ccc(O)cc2)[C@H](Cc2ccccc2)[C@H](O)CN(Cc2ccccc2)N1Cc1ccc(O)cc1 | 0.0005 µM | fluorescence |  |  | 58%
CC1(C)CC[C@]2(C(=O)O)CCC3=C(CCC4[C@@]5(C)C[C@H](O)[C@H](O)[C@@](C)(C(=O)O)C5CC[C@@]34C)C2C1 | 1000 µg/mL | substrate cleavage / fluorescence |  |  | 85.8%
NC(=O)C[C@H](NC(=O)CCCCCCCCCCCCCCC(=O)N[C@@H](CC1CCCCC1)C(=O)N[C@@H](Cc1ccccc1)C(N)=O)C(=O)N[C@@H](Cc1ccccc1)C(=O)O | 1 µM | HPLC |  |  | 31%
Cc1ccccc1CNC(=O)[C@H]1N(C(=O)[C@@H](O)[C@H](Cc2ccccc2)NC(=O)c2cccc(O)c2C)CSC1(C)C | 0.05 µM | HPLC |  |  | 96%
Cc1cccc(C)c1OCC(=O)N[C@@H](Cc1ccccc1)[C@H](O)C(=O)N1CSC(C)(C)[C@H]1C(=O)NCc1ccccn1 | 0.05 µM | HPLC |  |  | 57.8%
CC(C)[C@H](NC(=O)OCc1ccccc1)C(=O)N[C@@H](Cc1ccccc1)[C@H](O)[C@H](O)[C@H](Cc1ccccc1)NC(=O)[C@@H](NC(=O)OCc1ccccc1)C(C)C | 0.001 µM | fluorescence |  |  | 56%
Cc1cccc(C)c1OCC(=O)N[C@@H](Cc1ccccc1)[C@H](O)C(=O)N1CSC(C)(C)[C@H]1C(=O)NCc1ccccc1 | 0.05 µM | HPLC |  |  | 86%
O=C(O[C@@H]1O[C@@H]2COC(=O)c3cc(O)c(O)c(O)c3-c3c(cc(O)c(O)c3O)C(=O)O[C@H]([C@H]1O)[C@@H]2O)c1cc(O)c(O)c(O)c1 | 50 µg/mL | fluorescence |  |  | 91.4%
Cc1cccc(C)c1OCC(=O)N[C@@H](Cc1ccccc1)[C@H](O)C(=O)N1CSC(C)(C)[C@H]1C(=O)NCc1ccncc1 | 0.05 µM | HPLC |  |  | 70.7%
CC(C)(C)NC(=O)[C@@H]1CSCN1C(=O)[C@@H](O)[C@H](Cc1ccccc1)NC(=O)CC(C)(C)C(=O)O | 93 µM |  |  |  | 5%
C=C(C)[C@@H]1CCC2[C@]3(CC[C@]4(C)[C@@H]([C@H](C)CC/C=C(/C)C(=O)O)CC[C@@]24C)C[C@]13CCC(=O)O | 10 ± 6.1 µg/mL | fluorescence |  |  | 11.6%
Cc1cc(=O)n2[nH]c(N3C(=O)[C@H]4CCCC[C@H]4C3=O)nc2n1 | 150 µM |  |  |  | 32.51%
CC(C)C[C@H](NC(=O)OCc1ccccc1)C(=O)N[C@@H](Cc1ccccc1)C(O)[C@H](Cc1ccccc1)NC(=O)[C@H](CC(C)C)NC(=O)OCc1ccccc1 | 0.1 µM | fluorescence |  |  | 15%
O=C1N(Cc2ccc(O)c(F)c2)[C@H](Cc2ccccc2)[C@H](O)CN(Cc2ccccc2)N1Cc1ccc(O)c(F)c1 | 0.0005 µM | fluorescence |  |  | 68%
CC(C)[C@H](NC(=O)OCc1ccncc1)C(=O)N[C@@H](Cc1ccccc1)[C@H](O)[C@@H](O)[C@H](Cc1ccccc1)NC(=O)[C@@H](NC(=O)OCc1ccncc1)C(C)C | 0.002 µM | fluorescence |  |  | 44%
O=c1cc(-c2ccc(O)c(-c3c(O)cc(O)c4c(=O)cc(-c5ccc(O)cc5)oc34)c2)oc2cc(O)cc(O)c12 | 100 µg/mL | FRET |  |  | 90%
COc1cc(CN2C(=O)N(Cc3ccc(O)c(OC)c3)N(Cc3ccc(OCCO)cc3)C[C@@H](O)[C@H]2Cc2ccccc2)ccc1O | 0.0005 µM | fluorescence |  |  | 84%
CC(C)[C@H](NC(=O)OCc1ccccc1)C(=O)N[C@@H](Cc1ccccc1)[C@H](O)[C@H](Cc1ccccc1)NC(=O)[C@@H](NC(=O)OCC1CCCN(C)C1)C(C)C | 0.05 µM | fluorescence |  |  | 79%
CC(C(=O)O)C(C)C(=O)N[C@@H](Cc1ccccc1)[C@H](O)C(=O)N1CSC[C@H]1C(=O)NC(C)(C)C | 31.9 µM |  |  |  | 0.05%
CSCC[C@H](NC(=O)[C@H](C)NC(=O)[C@H](CCC(=O)O)NC(=O)[C@H](C)N)C(=O)N[C@@H](CO)C(=O)N[C@@H](CCC(N)=O)C(=O)O | 100 µM | HPLC | BH10 |  | <1%
COc1cc(CN2C(=O)N(Cc3ccc(O)c(OC)c3)N(c3ccc(OCCN4CCOCC4)cc3)C[C@@H](O)[C@H]2Cc2ccccc2)ccc1O | 0.0005 µM | fluorescence |  |  | 84%
CC(C)[C@H](NC(=O)OCc1cccnc1)C(=O)N[C@@H](Cc1ccccc1)[C@@H](O)[C@@H](O)[C@H](Cc1ccccc1)NC(=O)OC(C)(C)C | 0.001 µM | fluorescence |  |  | 40%
C=C1C(C(C)C2CC=C(C)C(=O)O2)=CC[C@]2(C)C1C[C@]1(O)C=C3C=CC(=O)OC(C)(C)C3CCC21 | 10 ± 0.7 µg/mL | fluorescence |  |  | 18.1%
CC(C)CC(NC(=O)[C@@H](NC(=O)OCc1ccccc1)C(C)C)C(O)C(F)(F)C(NC(=O)[C@@H](NC(=O)OCc1ccccc1)C(C)C)C(C)C | 0.005 µM | fluorescence |  |  | 45%
O=c1c(O)c(-c2ccc(O)cc2)oc2cc(O)cc(O)c12 | 50 µg/mL | fluorescence |  |  | 62.7%
Cc1c(O)cccc1C(=O)N[C@@H](Cc1ccccc1)[C@H](O)C(=O)N1CSC(C)(C)[C@H]1C(=O)NC(C)(C)C | 0.05 µM | HPLC |  |  | 87.6%
CC1=CC(C)(C)Nc2ccc(OC(=O)c3cccnc3)cc21 | 150 µM |  |  |  | 41.14%
CC(C)(C)NC(=O)[C@H]1N(C(=O)[C@@H](O)[C@H](Cc2ccccc2)NC(=O)CC(C)(C)C(=O)O)CSC1(C)C | 76.3 µM |  |  |  | 0.05%
CC(C)(C)OC(=O)N[C@@H](Cc1ccccc1)[C@H](O)CNC[C@@H](O)[C@H](Cc1ccccc1)NC(=O)COc1ccccc1 | 10 µM | HPLC |  | pH 5.5 | >51%
CC1=CC(C)(C)Nc2ccc(OC(=O)c3cccc([N+](=O)[O-])c3)cc21 | 150 µM |  |  |  | 26.99%
CC(C)[C@H](NC(=O)c1ccncc1)C(=O)N[C@@H](Cc1ccccc1)C(O)[C@H](Cc1ccccc1)NC(=O)[C@@H](NC(=O)c1ccncc1)C(C)C | 0.1 µM | fluorescence |  |  | 82%
CC(C)(C)NC(=O)[C@H]1N(C(=O)[C@@H](O)[C@H](Cc2ccccc2)NC(=O)CC(C)(C)C(=O)O)CSC1(C)C | 0.05 µM |  |  |  | 76.3%
O=c1c(O[C@@H]2O[C@H](CO)[C@@H](O)[C@H](O)[C@H]2O)c(-c2ccc(O)c(O)c2)oc2cc(O)cc(O)c12 | 50 µg/mL | HPLC |  |  | 26.6%
CC(C)[C@H](NC(=O)CCC1CCCCN1)C(=O)N[C@@H](Cc1ccccc1)C(O)[C@H](Cc1ccccc1)NC(=O)[C@@H](NC(=O)CCC1CCCCN1)C(C)C | 0.01 µM | fluorescence |  |  | 46%
Cc1nc2nc(NCc3cccc(Br)c3)[nH]n2c(=O)c1Cl | 150 µM |  |  |  | 28.8%
COc1ccc([C@@H]2CC(=O)c3c(O)cc(O)cc3O2)cc1O | 100 µg/mL | FRET |  |  | 7.2%
COc1ccccc1CNC(=O)[C@H]1N(C(=O)[C@@H](O)[C@H](Cc2ccccc2)NC(=O)COc2c(C)cccc2C)CSC1(C)C | 0.05 µM | HPLC |  |  | 24%
O=C(/C=C/c1ccc(O)cc1)OCC1OC(OC2(COC(=O)/C=C/c3ccc(O)cc3)OC(COC(=O)/C=C/c3ccc(O)cc3)C(O)C2OC(=O)/C=C/c2ccc(O)cc2)C(O)C(O)C1O | 100 µg/mL | substrate cleavage / fluorescence |  |  | 95.38%
C=C1C2C[C@]3(O)C=C4C=CC(=O)OC(C)(C)C4[C@H](O)CC3[C@]2(C)CCC1(O)C(C)C1CC=C(C)C(=O)O1 | 10 ± 8.3 µg/mL | fluorescence |  |  | 8.5%
O=c1cc(-c2ccc(O)cc2)oc2cc(O)c(O)c(O)c12 | 50 µg/mL | fluorescence |  |  | 73.4%
O=c1c(-c2ccc(O)cc2)coc2cc(O)cc(O)c12 | 1000 µg/mL | substrate cleavage / fluorescence |  |  | 75%
Cc1ccccc1-n1nnc(C(c2ccccc2)(c2ccccc2)n2ccnc2)c1C | 0.08 µg/mL | substrate cleavage / fluorescence |  |  | 12.1%
Cc1c(O)cccc1C(=O)N[C@@H](Cc1ccccc1)[C@H](O)C(=O)N1CSC(C)(C)[C@H]1C(=O)NC(C)(C)C | 0.05 µM |  |  |  | 87.6%
O=c1c2c(nc3nc(COc4ccccc4)[nH]n13)CCC2 | 150 µM |  |  |  | 42.23%
CC(C)(C)NC(=O)[C@@H]1CCCN1C(=O)[C@@H](O)[C@H](Cc1ccccc1)NC(=O)[C@H](CC(N)=O)NC(=O)c1ccc2ccccc2n1 | 0.05 µM |  |  |  | 72.7%
NC(=O)C[C@H](NC(=O)CCCCCCCCCCCCCCC(=O)N[C@H](C(=O)N[C@@H](Cc1ccccc1)C(N)=O)C1CCCCC1)C(=O)N[C@@H](Cc1ccccc1)C(=O)O | 1 µM | HPLC |  |  | 46%
CC(C)(C)N[C@@H](Cc1ccccc1)C(=O)N[C@@H](Cc1ccccc1)[C@H](O)CNC[C@@H](O)[C@H](Cc1ccccc1)NC(=O)[C@H](Cc1ccccc1)NC(C)(C)C | 10 µM | HPLC |  | pH 5.5 | 3%
O=C1OC2[C@@H](CO)O[C@@H](OC(=O)c3cc(O)c(O)c(O)c3)[C@H](OC(=O)c3cc(O)c(O)c4c3[C@@H]3C1=CC(=O)C(O)(O)C3(O)O4)[C@H]2O | 50 µg/mL | fluorescence |  |  | 42.7%
Cc1ccccc1CNC(=O)[C@H]1N(C(=O)[C@@H](O)[C@H](Cc2ccccc2)NC(=O)c2ccc(F)c(O)c2C)CSC1(C)C | 0.05 µM | HPLC |  |  | 88%
CC(C)[C@H](NC(=O)OCc1ccccn1)C(=O)N[C@@H](Cc1ccccc1)[C@H](O)[C@@H](O)[C@H](Cc1ccccc1)NC(=O)[C@@H](NC(=O)OCc1ccccn1)C(C)C | 0.001 µM | fluorescence |  |  | 84%
CC[C@H](C)/C=C(C)/C=C/C(=O)Cc1cc(O)c(C)c(O)c1C=O | 100 µg/mL | HPLC |  |  | 0%
NC(=O)C[C@H](NC(=O)CCCCCCCCCCCCCCC(=O)NCc1cccc(C(=O)N[C@@H](Cc2ccccc2)C(N)=O)c1)C(=O)N[C@@H](Cc1ccccc1)C(=O)O | 1 µM | HPLC |  |  | 10%
CC[C@H](C)[C@H](NC(=O)[C@@H]1CCCN1C(=O)[C@H](O)[C@H](Cc1ccccc1)NC(=O)[C@H](CC(N)=O)NC(=O)[C@H](Cc1ccccc1)NC(=O)[C@@H](N)CO)C(=O)N[C@H](C(N)=O)C(C)C | 5 µM |  |  |  | 96.8%
C[C@H]1[C@H](C)CC[C@]2(C(=O)O)CC[C@]3(C)C(=CC[C@@H]4[C@@]5(C)CC[C@H](O)C(C)(C)[C@@H]5CC[C@]43C)[C@H]12 | 1000 µg/mL | substrate cleavage / fluorescence |  |  | 83.7%
O=C1c2cccc([N+](=O)[O-])c2C(=O)N1c1ccc2[nH]c(=S)sc2c1 | 150 µM |  |  |  | 63.07%
CNC(=O)C(O)(C(=O)N[C@@H](Cc1ccccc1)[C@H](O)CNC[C@@H](O)[C@H](Cc1ccccc1)NC(=O)OC(C)(C)C)C(C)(C)C | 10 µM | HPLC |  | pH 5.5 | 99%
O=C1CCc2cc(S(=O)(=O)NC(C(=O)NCc3ccco3)c3ccccc3)ccc2N1 | 150 µM |  |  |  | 34.78%
CC1=CCC(C(C)C2=CC[C@]3(C)C(=C2C)C[C@]2(O)C=C4C=CC(=O)OC(C)(C)C4[C@H](O)CC23)OC1=O | 10 ± 1.7 µg/mL | fluorescence |  |  | 12.3%
COc1ccc(-c2cc(=O)c3c(OC)c(OC)c(OC)c(OC)c3o2)cc1 | 50 µg/mL | fluorescence |  |  | 48%

Repeating the final 6 entries:

compound | tested at | read by | strain | conditions | result
C[C@H]1[C@H](C)CC[C@]2(C(=O)O)CC[C@]3(C)C(=CC[C@@H]4[C@@]5(C)CC[C@H](O)C(C)(C)[C@@H]5CC[C@]43C)[C@H]12 | 1000 µg/mL | substrate cleavage / fluorescence |  |  | 83.7%
O=C1c2cccc([N+](=O)[O-])c2C(=O)N1c1ccc2[nH]c(=S)sc2c1 | 150 µM |  |  |  | 63.07%
CNC(=O)C(O)(C(=O)N[C@@H](Cc1ccccc1)[C@H](O)CNC[C@@H](O)[C@H](Cc1ccccc1)NC(=O)OC(C)(C)C)C(C)(C)C | 10 µM | HPLC |  | pH 5.5 | 99%
O=C1CCc2cc(S(=O)(=O)NC(C(=O)NCc3ccco3)c3ccccc3)ccc2N1 | 150 µM |  |  |  | 34.78%
CC1=CCC(C(C)C2=CC[C@]3(C)C(=C2C)C[C@]2(O)C=C4C=CC(=O)OC(C)(C)C4[C@H](O)CC23)OC1=O | 10 ± 1.7 µg/mL | fluorescence |  |  | 12.3%
COc1ccc(-c2cc(=O)c3c(OC)c(OC)c(OC)c(OC)c3o2)cc1 | 50 µg/mL | fluorescence |  |  | 48%